According to the supplement of paper PMC9931576:
Human monoclonal antibodies against the spike receptor-binding domain (heavy:light variable regions). IC50 against pseudoviruses bearing the spike of naturally observed variants; lower = stronger; >10 µg/ml means not reached at the top dose. No active / inactive call. The stated detection limit is 0.0005 µg/ml; values near or below 0.001 µg/ml lie at the floor of the assay.

B1: BD56-1517 (protein)
chain 1: EVQLVESGGGLVQPGRSLRLSCVVSGFTFDDYAIHWVRQAPGKGLEWVSGISWNGGTIGYADSVRGRFIISRDNAKNSLYLQMNSLRVEDTALYYCAKERGLTERTYYDMDIWGQGTTVTVSS
chain 2: QSALTQPASVSGSPGQSITISCTGTSSDVGVYNYVSWYQQLPGKAPKLMISDVSKRPSGVSHRFSGSKSGNTASLSISGLQAEDEADYYCSSYTSHSTVIFGGGTKLTVL
B2: BD56-1524 (protein)
chain 1: QLQLQESGPGLVKPSETLSLTCTVSGGSITSSHYFWGWIRQPPGKGLEWIATMTYGGNSYYKPSLKSRLIISLDTSKDHISLRLSSVTAADTAVYYCVGNQWLRGPFDFWGQGILVTVSS
chain 2: NFMLTQPHSVSESPGKTVTISCTGSSGYIASNYVQWYQQRPGSAPTTLIYEDNQRPSGVPDRFSGSIDSSSNSASLTISGLKTEDEASYYCQSFDSNDLWVFGGGTKLTVL
B3: BD56-1527 (protein)
chain 1: EVQLVESGGGLVQPGRSLRLSCTASGITVDNYAMHWVRQAPGKGLEWVSGINWNGDGTGYADSVKGRFTISRDNARNSLYLQMNSLRVEDTAFYFCTKNRVGYNWNYQAVFDPWGQGTLVTVSS
chain 2: EIVLTQSPGTLSLSPGERATLSCRASQTVSSRYLAWYQQKPGQAPRLLIYGASSRATGIPDRFSGSGSGTDFTLTISRLEPEDFAVYYCQQYSRSPGSFGQGTKLDIK
B4: BD56-1534 (protein)
chain 1: QVQLVESGGGVVQPGRSLRLSCAASGFTFSTYGMHWVRQAPGKGLEWVAVIWYDGSNKYYADSVKGRFTISRDNSKNTLYLQVNSLRAEDTAVYYCAKAGGTYCSGGDCYSAYFDYWGQGTLVTVSS
chain 2: EIVLTQSPGTLSLSPGERATLSCRASQSVSSSYLAWYQQKRGQAPRLLISGASSRAAGIPDRFSGSGSGTDFTLTISRLEPEDFAVYYCQQYVTSPLTFGGGTKVEIK
B5: BD56-1538 (protein)
chain 1: QVQLVQSGAEVKKPGASVKVSCKASGYTFINYYIHWVRQAPGQGLEWMGIINPSGDATSYAQKFQGRVTMTGDTSTSTVYMALTSLRSDDTAVYYCARGLIVPRWRHTEFDPWGQGTLVTVSS
chain 2: QSVLTQPPSVSAAPGQKVTISCSGSSSNIGDNYVSWYQQLPGTAPKLLIYDNNKRPSGIPDRFSGSKSATSATLGIAGLQTGDEADYYCGTWDSRLSSGVFGGGTKLTVL
B6: BD56-1543 (protein)
chain 1: QVQLVQSGAEVKKPGSSVKVICKASGGTFSSYAISWVRQAPGQGLEWMGGIIPILGTSRYAQKFQGRVTVTADESTSTAYMELSSLRSEDTAVYWCARELGYSGSGSNWYFDLWGRGTLVTVSS
chain 2: QSVLTQPPSVSGAPGQRVTISCTGSSSNIGAGYDVHWYQQLPGTAPKLLIYGNSNRPSGVPDRFSGSKSGTSASLAITGLQAEDEADYYCQSYDSSLSGSVFGGGTKLTVL
B7: BD56-1544 (protein)
chain 1: QVQLQESGPGLVKPSQTLSLTCTVSGDSISSGSYYWSWIRQHPEKGLEWIGYIYYSGSTYYNPSLKTRLSMSLDISKNQFSLRLSSVTAADTAVYYCVRERILMVLTTTPYYYGVDVWGQGTTVTVSS
chain 2: DIVMTQSPATLSVSPGERATLSCRASQSIGSDLAWYQQRPGQAPRLLIYGASTRATGVPARFSGSGSGTDFTLTISSLQSEDFAIYYCQRYNNWPPWTFGQGTKVEIK
B8: COV2-2531 (protein)
chain 1: QVQLQESGPGLVKPSETLSLTCSVSGGSIRSYFWNWVRQPPGKGLEWIGYIYYSGSTNYKPSFKSRVTISLDTSKNQISLKLSSVTAADTAVYYCARATWLRDAFGIWGQGTMVTVSS
chain 2: NFMLTQPHSVSESPGKTVTISCTGNSGSIASNYVQWYQQRPGSAPTTVIYEDSQRPSGVPDRFSGSIDSSSNSASLTISGLKTEDEADYYCQSFDSGNVVFGGGTKLTVL
B9: BD56-1547 (protein)
chain 1: QVQLVESGGGVVQPGRSLRLSCAASGFTFSSYALHWVRQAPGKGLEWVAAISFDGSNIYYADSVKGRFTVSRDNSKNTLYLQMNSLRAEDTAVYFCARDWGYAYTYGSSSDYWGQGALVTVSS
chain 2: DIQMTQSPSTLSASVGDRVTITCRASQSLTSWLAWYQQKPGRAPKLLIYQASSLESGVPSRFSGSGSGTEFTLTISSLQPADFATYYCQQYKSYPYTFGQGTKLEIK
B10: BD56-1551 (protein)
chain 1: EVQLVESGGGLVQPGRSLRLSCAASGFTFRDYAMHWVRQVPGKGLEWVSGINWSSDKIHYADSVRGRFTISRDNAKNSLYLQMNSLRTEDTALYYCAKDIADQQQDLGDDYYYYYGMDVWGQGTTVTVSS
chain 2: SYDLTQPPSVSVSPGQTASITCSGHKLGDKYVSWYQQKPGQSPVLVIYQDSKRPSGIPERFSGSNSGKTATLTVSGTQAMDEADYYCQAWDSSISYVFGTGTKVTVL
B11: BD56-1554 (protein)
chain 1: EVQLVESGGGLVQPGRSLRLSCAASGFTFDDYGMHWVRQAPGMGLEWVSGISWSSATIDYADSVKGRFTISRDNAKNSLYLEMNSLRVEDTALYYCAKHVRRTTWLKDAFDLWGQGTMVTVSS
chain 2: DIVMSQSPDSLAVSLGERATINCKSSQSVLYSSTNNNYLAWYQQKPGQPPKLLIYWASTRESGVPDRFIGSGSGTDFTLTISSLQAEDVAVYYCQQYYTTPTFGQGTKVEIK
B12: BD56-1555 (protein)
chain 1: EALLVESGGGLVKPGGSLRLSCAASGFSFTNAWMNWVRQAPGKGLEWVGLIKSKIDGGTPEYAAPVKDRFTISRDDSKNTLFLQMNSLNIEDTAVYYCWFGDFLNYYHYGMDVWGQGTTVIVSS
chain 2: DIQMTQSPSTLSASVGDRVTITCRASQSISSWLAWYQQKPGKAPKVLIYKASNLQSGVPSRFSGSGSGTEFTLTISSLRPDDSATYYCQQYNSYLYTFGQGTKLEIK

Assays:
Experiment in all cases: pseudovirus neutralization IC50; higher = weaker neutralization
[1] = target: SARS-CoV-2 Omicron BA.1 spike pseudovirus
Description: (§1)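 Single-round VSV luciferase pseudovirus mixed with antibody dilutions for 1 h and put on Huh-7 cells for about a day; IC50 from the dose curve.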

[2] = target: SARS-CoV-2 Omicron BA.2 spike pseudovirus
Description: as §1

[3] = target: SARS-CoV-2 Omicron BA.2.75 spike pseudovirus
Description: as §1

[4] = target: SARS-CoV-2 Omicron BA.5 spike pseudovirus
Description: as §1

[5] = target: SARS-CoV-2 Omicron BQ.1.1 spike pseudovirus
Description: as §1

[6] = target: SARS-CoV-2 Omicron XBB spike pseudovirus
Description: as §1

[7] = target: SARS-CoV-2 early D614G spike pseudovirus
Description: as §1

Row | Binder | pseudovirus neutralization IC50 [1] [µg/mL] | pseudovirus neutralization IC50 [2] [µg/mL] | pseudovirus neutralization IC50 [3] [µg/mL] | pseudovirus neutralization IC50 [4] [µg/mL] | pseudovirus neutralization IC50 [5] [µg/mL] | pseudovirus neutralization IC50 [6] [µg/mL] | pseudovirus neutralization IC50 [7] [µg/mL]
1 | B1 | 0.519 | 0.341 | 0.149 | > 10 | > 10 | 1.67 | 0.218
2 | B2 | > 10 | > 10 | > 10 | > 10 | > 10 | > 10 | 0.125
3 | B3 | > 10 | > 10 | > 10 | > 10 | > 10 | > 10 | > 10
4 | B4 | > 10 | > 10 | > 10 | > 10 | > 10 | > 10 | > 10
5 | B5 | > 10 | > 10 | > 10 | > 10 | > 10 | > 10 | > 10
6 | B6 | 0.121 | 0.0575 | 0.106 | > 10 | > 10 | > 10 | > 10
7 | B7 | > 10 | > 10 | > 10 | > 10 | > 10 | > 10 | > 10
8 | B8 | > 10 | > 10 | > 10 | > 10 | > 10 | > 10 | 1.01
9 | B9 | > 10 | > 10 | > 10 | > 10 | > 10 | > 10 | > 10
10 | B10 | 1.98 | 2.31 | 0.974 | 1.27 | 2.55 | 2.48 | 2.61
11 | B11 | > 10 | > 10 | > 10 | > 10 | > 10 | > 10 | > 10
12 | B12 | 1.01 | 1.69 | > 10 | > 10 | > 10 | > 10 | > 10
